Measurements published in patent publication US20220089698A1, “ANTIBODIES THAT TARGET HIV GP120 AND METHODS OF USE” (published 2022).

Tests used:
Assay in all cases: cell-based or functional assay
[1] = target: HIV-1 envelope glycoprotein gp120 of virus CHO77 (HIV-1 subtype B, virus CHO77)
[2] = target: HIV-1 envelope glycoprotein gp120 of virus BaL (HIV-1 BaL (lab adapted strain, subtype …))
[3] = target: HIV-1 envelope glycoprotein gp120 of virus 92US657 (HIV-1 subtype B, isolate 92US657)

Binder	Virus Neutralization Potency (IC50) [1]	Virus Neutralization Potency (IC50) [2]	Virus Neutralization Potency (IC50) [3]
Antibody 1.3.1-1 (antibody, human IgG1, kappa) heavy: QVSLLQSGAAVTKPGASVRVSCEASGYNIRDYFIHWWRQAPGQGLQWVGWINPKTGQPNNPRQFQGRVSLTRHASWDFDTFSFYMDLKALRSDDTAVYFCARQRSDYWDFDVWGSGTQVTVSSASTKGPSVFPLAPSSKSTSGGTAALGCLVKDYFPEPVTVSWNSGALTSGVHTFPAVLQSSGLYSLSSVVTVPSSSLGTQTYICNVNHKPSNTKVDKKVEPKSCDKTHTCPPCPAPELLAGPDVFLFPPKPKDTLMISRTPEVTCVVVDVSHEDPEVKFNWYVDGVEVHNAKTKPREEQYNSTYRVVSVLTVLHQDWLNGKEYKCKVSNKALPLPEEKTISKAKGQPREPQVYTLPPSREEMTKNQVSLTCLVKGFYPSDIAVEWESNGQPENNYKTTPPVLDSDGSFFLYSKLTVDKSRWQQGNVFSCSVLHEALHSHYTQKSLSLSPGK light: not shown	0.08 µg/mL	0.26 µg/mL	1.84 µg/mL
Antibody 1.4.1-1 (antibody, human IgG1, kappa) heavy: QVQLVQSGAAVTKPGASVRVSCEASGYNIRDYFIHWWRQAPGQGLQWVGWINPKTGQPNNPRQFQGRVSLTRHASWDFDTFSFYMDLKALRSDDTAVYFCARQRSDYWDFDVWGSGTQVTVSSASTKGPSVFPLAPSSKSTSGGTAALGCLVKDYFPEPVTVSWNSGALTSGVHTFPAVLQSSGLYSLSSVVTVPSSSLGTQTYICNVNHKPSNTKVDKKVEPKSCDKTHTCPPCPAPELLAGPDVFLFPPKPKDTLMISRTPEVTCVVVDVSHEDPEVKFNWYVDGVEVHNAKTKPREEQYNSTYRVVSVLTVLHQDWLNGKEYKCKVSNKALPLPEEKTISKAKGQPREPQVYTLPPSREEMTKNQVSLTCLVKGFYPSDIAVEWESNGQPENNYKTTPPVLDSDGSFFLYSKLTVDKSRWQQGNVFSCSVLHEALHSHYTQKSLSLSPGK light: not shown	0.04 µg/mL	0.21 µg/mL	1.35 µg/mL
Antibody 1.5.1-1 (antibody, human IgG1, kappa) heavy: QVQLVQSGAAVTKPGASVRVSCKASGYNIRDYFIHWWRQAPGQGLQWVGWINPKTGQPNNPRQFQGRVSLTRHASWDFDTFSFYMDLKALRSDDTAVYFCARQRSDYWDFDVWGSGTQVTVSSASTKGPSVFPLAPSSKSTSGGTAALGCLVKDYFPEPVTVSWNSGALTSGVHTFPAVLQSSGLYSLSSVVTVPSSSLGTQTYICNVNHKPSNTKVDKKVEPKSCDKTHTCPPCPAPELLAGPDVFLFPPKPKDTLMISRTPEVTCVVVDVSHEDPEVKFNWYVDGVEVHNAKTKPREEQYNSTYRVVSVLTVLHQDWLNGKEYKCKVSNKALPLPEEKTISKAKGQPREPQVYTLPPSREEMTKNQVSLTCLVKGFYPSDIAVEWESNGQPENNYKTTPPVLDSDGSFFLYSKLTVDKSRWQQGNVFSCSVLHEALHSHYTQKSLSLSPGK light: not shown	0.14 µg/mL	0.26 µg/mL	0.85 µg/mL
Antibody 1.6.1-1 (antibody, human IgG1, kappa) heavy: QVQLLQSGAEVTKPGASVRVSCEASGYNIRDYFIHWWRQAPGQGLQWVGWINPKTGQPNNPRQFQGRVSLTRHASWDFDTFSFYMDLKALRSDDTAVYFCARQRSDYWDFDVWGSGTQVTVSSASTKGPSVFPLAPSSKSTSGGTAALGCLVKDYFPEPVTVSWNSGALTSGVHTFPAVLQSSGLYSLSSVVTVPSSSLGTQTYICNVNHKPSNTKVDKKVEPKSCDKTHTCPPCPAPELLAGPDVFLFPPKPKDTLMISRTPEVTCVVVDVSHEDPEVKFNWYVDGVEVHNAKTKPREEQYNSTYRVVSVLTVLHQDWLNGKEYKCKVSNKALPLPEEKTISKAKGQPREPQVYTLPPSREEMTKNQVSLTCLVKGFYPSDIAVEWESNGQPENNYKTTPPVLDSDGSFFLYSKLTVDKSRWQQGNVFSCSVLHEALHSHYTQKSLSLSPGK light: not shown	0.1 µg/mL	0.39 µg/mL	1.32 µg/mL
Antibody 1.7.1-1 (antibody, human IgG1, kappa) heavy: QVQLLQSGAEVKKPGASVRVSCEASGYNIRDYFIHWWRQAPGQGLQWVGWINPKTGQPNNPRQFQGRVSLTRHASWDFDTFSFYMDLKALRSDDTAVYFCARQRSDYWDFDVWGSGTQVTVSSASTKGPSVFPLAPSSKSTSGGTAALGCLVKDYFPEPVTVSWNSGALTSGVHTFPAVLQSSGLYSLSSVVTVPSSSLGTQTYICNVNHKPSNTKVDKKVEPKSCDKTHTCPPCPAPELLAGPDVFLFPPKPKDTLMISRTPEVTCVVVDVSHEDPEVKFNWYVDGVEVHNAKTKPREEQYNSTYRVVSVLTVLHQDWLNGKEYKCKVSNKALPLPEEKTISKAKGQPREPQVYTLPPSREEMTKNQVSLTCLVKGFYPSDIAVEWESNGQPENNYKTTPPVLDSDGSFFLYSKLTVDKSRWQQGNVFSCSVLHEALHSHYTQKSLSLSPGK light: not shown	0.1 µg/mL	0.51 µg/mL	1.1 µg/mL
Antibody 1.8.1-1 (antibody, human IgG1, kappa) heavy: QVQLVQSGAEVTKPGASVRVSCEASGYNIRDYFIHWWRQAPGQGLQWVGWINPKTGQPNNPRQFQGRVSLTRHASWDFDTFSFYMDLKALRSDDTAVYFCARQRSDYWDFDVWGSGTQVTVSSASTKGPSVFPLAPSSKSTSGGTAALGCLVKDYFPEPVTVSWNSGALTSGVHTFPAVLQSSGLYSLSSVVTVPSSSLGTQTYICNVNHKPSNTKVDKKVEPKSCDKTHTCPPCPAPELLAGPDVFLFPPKPKDTLMISRTPEVTCVVVDVSHEDPEVKFNWYVDGVEVHNAKTKPREEQYNSTYRVVSVLTVLHQDWLNGKEYKCKVSNKALPLPEEKTISKAKGQPREPQVYTLPPSREEMTKNQVSLTCLVKGFYPSDIAVEWESNGQPENNYKTTPPVLDSDGSFFLYSKLTVDKSRWQQGNVFSCSVLHEALHSHYTQKSLSLSPGK light: not shown	0.09 µg/mL	0.04 µg/mL	1.88 µg/mL
Antibody 1.9.1-1 (antibody, human IgG1, kappa) heavy: QVQLVQSGAEVKKPGASVRVSCKASGYNIRDYFIHWWRQAPGQGLQWVGWINPKTGQPNNPRQFQGRVSLTRHASWDFDTFSFYMDLKALRSDDTAVYFCARQRSDYWDFDVWGSGTQVTVSSASTKGPSVFPLAPSSKSTSGGTAALGCLVKDYFPEPVTVSWNSGALTSGVHTFPAVLQSSGLYSLSSVVTVPSSSLGTQTYICNVNHKPSNTKVDKKVEPKSCDKTHTCPPCPAPELLAGPDVFLFPPKPKDTLMISRTPEVTCVVVDVSHEDPEVKFNWYVDGVEVHNAKTKPREEQYNSTYRVVSVLTVLHQDWLNGKEYKCKVSNKALPLPEEKTISKAKGQPREPQVYTLPPSREEMTKNQVSLTCLVKGFYPSDIAVEWESNGQPENNYKTTPPVLDSDGSFFLYSKLTVDKSRWQQGNVFSCSVLHEALHSHYTQKSLSLSPGK light: not shown	0.17 µg/mL	0.2 µg/mL	1.39 µg/mL
Antibody 1.15.1-1 (antibody, human IgG1, kappa) heavy: QVQLLQSGAAVTKPGASVRVSCEASGYNIRDYFIHWWRQAPGQGLQWVGWINPKWGQPNNPRQFQGRVSLTRHASWDFDTFSFYMDLKALRSDDTAVYFCARQRSDYWDFDVWGSGTQVTVSSASTKGPSVFPLAPSSKSTSGGTAALGCLVKDYFPEPVTVSWNSGALTSGVHTFPAVLQSSGLYSLSSVVTVPSSSLGTQTYICNVNHKPSNTKVDKKVEPKSCDKTHTCPPCPAPELLAGPDVFLFPPKPKDTLMISRTPEVTCVVVDVSHEDPEVKFNWYVDGVEVHNAKTKPREEQYNSTYRVVSVLTVLHQDWLNGKEYKCKVSNKALPLPEEKTISKAKGQPREPQVYTLPPSREEMTKNQVSLTCLVKGFYPSDIAVEWESNGQPENNYKTTPPVLDSDGSFFLYSKLTVDKSRWQQGNVFSCSVLHEALHSHYTQKSLSLSPGK light: not shown	0.1 µg/mL	0.17 µg/mL	1.42 µg/mL
